{
  "source": "patent US20260069689A1",
  "about": "“ANTI-SARS-COV-2-SPIKE GLYCOPROTEIN ANTIBODIES AND ANTIGEN-BINDING FRAGMENTS” (Regeneron, published 2026)",
  "binders": {"B1": {"name": "mAb15156 (antibody, V domains shown)", "VH": "QLQLQESGPGLVKSSETLSLTCTVSASITGSTYYWGWIRQPPGKGLEWIGSIYYSGTTYYKASLKSRVTISVDTSKNQFSLKLTSVTVADTAVYYCVSHLLGNYHKYGMDVWGQGTTVTVSS", "VL": "QSVLTQPPSASGTPGQRVTISCSGSRSNIGINTVNWYQQFPGTALNLLIFSDNQRPSGVPDRFSGSKSGTSASLAISGLQSEDEADYYCAAWDDSLNGPDWVFGGGTKLTVLG"}, "B2": {"name": "mAb15163 (antibody, V domains shown)", "VH": "EVQLVETGGGLIQPGESLRLSCAASGFIVSTNYMNWVRQAPGKGLEWVSVIYRGGSTYYADSVKGRFTISRDNSKNTLFLQMNSLRAEDTAVYYCARGHEDFDYDTPASGAFDIWGQGTMVTVSS", "VL": "QSALTQPPSASGSPGQSVTISCTGTSSDVGGHNYVSWYQQHPGKAPKVMIYEVSKRPSGVPDRFSGSKSGNTASLTVSGLQAEDEADYYCSSYAGSNKFVFGTGTKVTVLG"}, "B3": {"name": "mAb15164 (antibody, V domains shown)", "VH": "EVQLVESGGGLVQPGGSLRLSCAASGFAVSSNYMTWVRQAPGKGLEWVATIYSGDSTYYADSVKGRFTISRHNSKNTLSLQMNSLRADDTAIYYCARLSGVLSGTYNGAFDIWGQGTMVTVSS", "VL": "QSALTQPASVSGSPGQSITISCTGTSSDFGNYNIVSWYQQHPGQAPKVMIYEGNKRPSGVSNRFSGSKSGHTASLTISGLQAEDEADYYCSSYAGSSTWVFGGGTKLTVLG"}, "B4": {"name": "mAb15157 (antibody, V domains shown)", "VH": "EVQLVESGGALVQPGGSLRLSCAASGFPFTIYAMTWVRQAPGKGLEWVSVITGSGDSTYYADSVKGRFTISRDNSKNTLYLQMNSLRAEDTAVYYCVKTGEGFFYYYYGMDVWGQGTTVTVSS", "VL": "QSVLTQPPSVSAAPGQKVTISCSGSSSNIGNSYISWYQQLPGTAPKLLIYVNNKRPSGIPDRFSGSKSGTSATLGITGLQTGDEADYYCGTWDSSLSAGVFGSGTKVTVLG"}, "B5": {"name": "mAb15158 (antibody, V domains shown)", "VH": "EVQLVESGGGLVQPGGSLRLSCAASGFSFSSNWMSWVRQAPGKGLEWVGNINQDGSEKYYVDSVEGRFTISRDNAKKSLYLQMNSLRAEDTAVYYCARDLGVLWFGDFVDWGQGALVTVSS", "VL": "DIQMTQSPSSLSASVGDRVTITCRASQAISNSLAWYQQKPGKAPKLLLYAASTLESGVPSRFSGSGSGTDYTLTISSLQPEDFATYYCLQYYGSPRTFGQGTKVEIKR"}, "B6": {"name": "mAb15159 (antibody, V domains shown)", "VH": "EVQLVESGGGLVQPGGSLRLSCAASGITVSSNYMTWVRQAPGKGLEWVSLIYSGGSTFYADSVRGRFTISRDNSKNTLYLQMNSLRAEDTAVYYCARDLVVYGMDVWGQGTTVTVSS", "VL": "DIQLTQSPSSLSASVGDRVTITCRASQGISSYLAWYQQKPGKAPKLLIYAASTLQSGVPSRFSGSGSGTDFTLTISSLQPEDFATYYCQHLNSDPHTFGQGTKLEIKR"}, "B7": {"name": "mAb15160 (antibody, V domains shown)", "VH": "EVQLVESGGGLVQPGGSLRLSCSASGFTFSRYAMYWVRQAPGKGLEYVSAISSDGGSTYDADSVKGRFTISRANSKNTLYLQMSSLRAEDTAVYYCVKGLRELLYYYYGMDVWGQGTTVTVSS", "VL": "DIQMTQSPSSLSASVGDRVTITCRAGQSISSFLNWYQQKPGKAPKLLIYAASSLQSGVPSRFSGSGSGTDFTLTISSLQPEDFATYYCQQSYITPFTFGPGTKVDIKR"}, "B8": {"name": "mAb15161 (antibody, V domains shown)", "VH": "EVQLVESGGGLVQPGGSLRLSCAASGFTFSSYEMNWVRQAPGKGLEWVSYISSSGSILYYADSVKGRFTASRDNAKNSLYLQMNSLRAEDTGVYYCARREYQLLRPFEFWGQGTLVTVSS", "VL": "not shown"}, "B9": {"name": "mAb15162 (antibody, V domains shown)", "VH": "EVQLVETGGGLIQPGGSLRLSCAASEFIVSRNYMSWVRQAPGKGLEWVSLIYSGGSTYYADSVKGRFTISRDNSKNILYLQMNSLRAEDTAVYYCARDRGGISDYWGQGTLVTVSS", "VL": "DIQMTQSPSSLSASVGDRVTITCQASQDINKYLNWFQQKPGKAPKLLIYDASNLETGVPSRFSGSGSGTDFTFTISSLQPEDIATYYCQQYDNLPRTFGQGTKLEIKR"}, "B10": {"name": "mAb15163 (antibody, V domains shown)", "VH": "B2 VH", "VL": "B2 VL"}, "B11": {"name": "mAb15164 (antibody, V domains shown)", "VH": "B3 VH", "VL": "B3 VL"}, "B12": {"name": "mAb15165 (antibody, V domains shown)", "VH": "EVQLVESGGGLVQPGGSLRLSCAASGFTVSSNYMSWVRQAPGKGLEWVSAIYSGDSTYYADSVKGRFTISKDNSKNTLYLQMNSLRGEDTAVYYCARLGGALQAYDGAFDYWGQGTLATVSS", "VL": "B3 VL with N31S, I34L, Q44K, V48L, N62I, H71N"}, "B13": {"name": "mAb15166 (antibody, V domains shown)", "VH": "EVQLVESGGGLVQPGGSLRLSCAASGFTVTSNYMSWVRQAPGKGLEWVSAIYSGESTYYADSVKGRFTISRDSSKNTLYLQMNSLRVEDTAVYYCASIHDYSNYVGGFDPWGQGTLVTVSS", "VL": "B3 VL with T25P, N31S, I34L, Q44K, V48L, N54T, H71N"}, "B14": {"name": "mAb15170 (antibody, V domains shown)", "VH": "B6 VH with S25T, T35S, R64K, D72H, N83S, V101D, Y102F", "VL": "B6 VL with S31N, A84G, H90Q, P95S, H96P, L104V"}, "B15": {"name": "mAb15151 (antibody, V domains shown)", "VH": "QVQLVESGGGVVQPGRSLRLSCAASGFVFNSYGMHWVRQAPGKGLEWVAVLWYEGSKNYYADSVKGRFTISRDNSKNTLYLQMNSLRAEDTAVYYCARHGSGSFFGYYLDYWGQGTLVTVSS", "VL": "DIQMTQSPSSLSASVGDRVTITCRASHNINDFLNWYQQKPGKAPRLLIYAASSLQSGVPSRFSGSGSGTDFTLTISSLQPEDFATYYCQESYTTPPTFGQGTKLEIKR"}},
  "note": "Where a chain is given by its changes, count along the chain named.",
  "data": [
    {"target": "SARS-COV-2 RBD-MMH (SARS-COV-2 RBD extracellular domain with C-terminal myc-myc-hexahistidine tag) (SARS-CoV-2)", "experiment": "SPR 37C, mAb captured, 90 nM RBD-MMH, dissociation pH 6.0", "units": {"RBD.mmh Bound at pH 7.4 (RU)": "RU"}, "values": [
      {"binder": "B1", "RBD.mmh Bound at pH 7.4 (RU)": 96.4},
      {"binder": "B2", "RBD.mmh Bound at pH 7.4 (RU)": 82.4},
      {"binder": "B3", "RBD.mmh Bound at pH 7.4 (RU)": 154}
    ]},
    {"target": "T1, SARS-COV-2 RBD extracellular domain expressed with a C-terminal mouse IgG2a Fc (SARS-CoV-2)", "experiment": "Biacore SPR, mAb captured on anti-hFc, 37 C", "units": {"RBD mFc dimer bound at 50 nM": "RU"}, "values": [
      {"binder": "B4", "RBD mFc dimer bound at 50 nM": 412},
      {"binder": "B5", "RBD mFc dimer bound at 50 nM": 279},
      {"binder": "B6", "RBD mFc dimer bound at 50 nM": 315},
      {"binder": "B7", "RBD mFc dimer bound at 50 nM": 440},
      {"binder": "B8", "RBD mFc dimer bound at 50 nM": 352},
      {"binder": "B9", "RBD mFc dimer bound at 50 nM": 323},
      {"binder": "B10", "RBD mFc dimer bound at 50 nM": 407},
      {"binder": "B11", "RBD mFc dimer bound at 50 nM": 466},
      {"binder": "B12", "RBD mFc dimer bound at 50 nM": 191},
      {"binder": "B13", "RBD mFc dimer bound at 50 nM": 351},
      {"binder": "B14", "RBD mFc dimer bound at 50 nM": 374},
      {"binder": "B15", "RBD mFc dimer bound at 50 nM": 654}
    ]},
    {"target": "T1, SARS-COV-2 RBD extracellular domain …", "experiment": "Biacore SPR, mAb captured on anti-hFc, 25 C", "units": {"RBD mFc dimer bound at 50 nM": "RU"}, "values": [
      {"binder": "B4", "RBD mFc dimer bound at 50 nM": 294},
      {"binder": "B5", "RBD mFc dimer bound at 50 nM": 175},
      {"binder": "B6", "RBD mFc dimer bound at 50 nM": 224},
      {"binder": "B7", "RBD mFc dimer bound at 50 nM": 268},
      {"binder": "B8", "RBD mFc dimer bound at 50 nM": 328},
      {"binder": "B9", "RBD mFc dimer bound at 50 nM": 354},
      {"binder": "B10", "RBD mFc dimer bound at 50 nM": 164},
      {"binder": "B11", "RBD mFc dimer bound at 50 nM": 309},
      {"binder": "B12", "RBD mFc dimer bound at 50 nM": 223},
      {"binder": "B13", "RBD mFc dimer bound at 50 nM": 334},
      {"binder": "B14", "RBD mFc dimer bound at 50 nM": 238},
      {"binder": "B15", "RBD mFc dimer bound at 50 nM": 492}
    ]}
  ]
}
